According to patent publication US20250145946A1, “GENERATION OF PURE RETINAL CELLS FROM HUMAN PLURIPOTENT STEM CELLS” (Wisconsin Alumni Research Foundation, priority 2023, published 2025):

System: H9 human embryonic stem cells (hESCs)
Test: qPCR analysis of neural and retinal gene expression during hPSC neural/retina differentiation
Format: cell-based
Details: time course, BMP2 from day 6; FIG. 11a
Protocol: hPSCs (H9, IMR-90-4 and WC30) were maintained under E8/feeder-free culture condition and passaged at 1:20 ratio with Rock inhibitor. After each new passage, the cells were fed with E8 medium for another 1˜2 days to reach 30-40% confluence. To initiate retina differentiation, culture medium was replaced with Retina Induction Medium (RIM) containing Neural induction medium (NIM) comprising DMEM/F12 media containing 1% N2 and 1× nonessential amino acids (NEAA) supplemented with 10 μM SB431542 (TGF inhibitor, Stemgent, 04-0010-10); this new passage day was counted as day 0 (DO) of retina differentiation. Cells were then fed daily with RIM, or every other day based on the cell density. On day 4, the cells were dissociated by ReLeSR (STEM CELL) or EDTA and re-suspended in the fresh RIM containing 0.5 micromolar (μM) Rock inhibitor. Cell clusters were thereafter transferred to a cell culture flask and cultured in suspension. On day 5, the resulting cell spheres were fed with RIM without SB431542. […]
Total RNA was isolated with the RNeasy Plus Mini Kit according to the manufacturer's instructions. For quantitative PCR (qPCR), cDNA was synthesized using PrimeScript RT Reagent Kit (Takara). qPCR was performed using iTaq Universal SYBR Green Supermix (Bio-Rad). […]

B1: BMP2: bone morphogenic protein variant species; BMP activator (R&D SYSTEMS, 355-BM) (protein, UniProt P12643 283-396, looked up)
Bone morphogenetic protein 2: QAKHKQRKRLKSSCKRHPLYVDFSDVGWNDWIVAPPGYHAFYCHGECPFPLADHLNSTNHAIVQTLVNSVNSKIPKACCVPTELSAISMLYLDENEKVVLKNYQDMVVEGCGCR
- expression of retinal lineage genes PAX6, SIX6 and VSX2 over time: increased
